Library screen at single concentrations

From ChEMBL document CHEMBL3988442, “University of Dundee, Small-Polar-MMV Screening Library” (2021).

The filed quantity is “Percent Effect” (%).
The controls that fix the scale are not given in the record; negative values are as filed.
Many other results are left out here, so strong results are more common than in the screen.

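Whole-cell growth test on Mycobacterium tuberculosis, read after 4 days in a medium based on cholesterol and the lipid DPPC; the read-out is not stated. Tested at 500 µM. The record gives no direction; compounds that gave an IC50 in retests scored well above the rest, so higher reads as more growth inhibition. About 18,000 compounds were tested under these conditions; 5% (about 900) showed 50% or more at least once.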

structure	percent effect
NC(=O)C1(NCCSCc2ccccc2)CC1	-18.09
CC(C)(C)OC(=O)N[C@H]1CCNC1	17.49
NC1CCN(CCN2CCOCC2)C1 (stereo not drawn)	-25.39
NC(=O)N1CCCC(C(=O)NCCc2ccsc2)C1 (stereo not drawn)	-2.493
O=C(CCc1ccccc1F)Nc1nnc[nH]1	-14.32
COc1cc(OC)cc(Oc2cccc(CN)c2)c1	-1.329
CCCNC(=O)c1csc(NC(C)=O)n1	-10.78
CC1c2ccsc2CCN1CCC(=O)N(C)C (stereo not drawn)	18.86
C=C(C)CN1CCN(C(=O)COC)CC1	-3.52
NCC1CCN(C2CCCCC2)C1 (stereo not drawn)	8.584
COCCn1ccnc1CN1C[C@H](N(C)C)C[C@H]1CO	1.796
CC(C)Sc1nc(-c2ccccn2)no1	72.26
CC(=O)Nc1nc(C(=O)NCc2ccc(C)s2)cs1	77.57
CNS(=O)(=O)CCCNC(C)(C)c1nccs1	9.661
COc1cccc(NC(=O)CN2CCN(C)CC2)c1	9.115
O=C1CCC(=O)N1CCOc1cccc(F)c1	11.28
CC1CCCN1C1CCN(CCNS(C)(=O)=O)CC1 (stereo not drawn)	31.72
Cn1cccc1C(=O)Nc1ccc(C(N)=O)cc1	19.78
CC1CCCN(C(=O)CN2CCCCC2=O)C1 (stereo not drawn)	9.625
c1ccc(-n2nnnc2CN2CCNCC2)cc1	-1.715
Cc1ccc(NCc2ncc[nH]2)c(F)c1	32.11
O=C(c1cn2ccsc2n1)N1CC=CC1CO (stereo not drawn)	-5.24
CC1=CCN(C(=O)c2ccsc2)CC1	56.71
OCC12CCN(CC1)CC2	-13.35
COc1ccc(N(C)CCCO)cc1OC	7.578
COc1c[nH]c(C(=O)NCCSC(F)(F)F)cc1=O	-9.302
c1ccc(N2CCCN(c3ncccn3)CC2)nc1	1.62
CCN1CCc2nc(NC(=O)c3ccncc3)sc2C1	-13.79
c1cncc(CN2CCC(OC3CCOCC3)CC2)c1	-15.83
Cc1cc(C)cc(OCCNC(=O)CSCC(N)=O)c1	34.94
CC(NC(=O)NCCc1ccccn1)c1nncn1C (stereo not drawn)	-16.61
CCCc1cc(C(=O)N2CCOC(C(F)(F)F)C2)no1 (stereo not drawn)	5.474
Cc1nccn1CCC(=O)Nc1sccc1C#N	-19.34
CC(=O)Nc1nc(CCN)cs1	14.53
CN(CC(N)=O)Cc1cc(Br)c2c(c1)OCO2	28.33
O=C(CCc1ccccc1)NC1CCNCC1	16.05
O=S(=O)(CCNC1CCCSC1)NCC1CCC1 (stereo not drawn)	47.26
O=C(c1cnn(-c2ccccc2)c1)N1CCCCC1	-12.49
CCC(NC(=O)CCCN1CCCC1)c1cnn(C)c1 (stereo not drawn)	4.097
CCC(O)(CN)c1ccc(Cl)cc1 (stereo not drawn)	6.801
CCC(OC)C(=O)NC1CCN(C2CC2)CC1 (stereo not drawn)	-16.2
CN(CCc1ccncc1)C(=O)CCNS(C)(=O)=O	-5.974
CC1CN(C(=O)NCc2ccc(Cl)s2)CCS(=O)(=O)C1 (stereo not drawn)	5.3
Cn1nnc(NC(=O)c2ccc(C#N)cc2F)n1	8.664
N#Cc1cccc(C2CNCCO2)c1 (stereo not drawn)	26.42
CCN1Cc2ccccc2CC1C(N)=O (stereo not drawn)	3.237
CC(C)Oc1ccc(CNC(=O)N2CCCC2)cn1	59.87
OC1CCN(C2COC2)CC1	0.6695
CC(C)Cc1nnc(CN)o1	-0.02899
CCN(C)C(=O)Nc1cnns1	-3.586
CNc1cc(-c2cccc(OC)c2OC)nc(N)n1	-5.72
O=C1CN(C(=O)CSc2ncccc2Cl)CCN1	-0.5653
CCCS(=O)(=O)NCc1cccc(OCCN(C)C)c1	19.62
CCc1nccn1-c1ccc(CN)cc1	11.72

Some entries from above, unchanged:

structure,percent effect
CC1CCCN1C1CCN(CCNS(C)(=O)=O)CC1 (stereo not drawn),31.72
CC1c2ccsc2CCN1CCC(=O)N(C)C (stereo not drawn),18.86
CN(CCc1ccncc1)C(=O)CCNS(C)(=O)=O,-5.974
OC1CCN(C2COC2)CC1,0.6695
CCC(OC)C(=O)NC1CCN(C2CC2)CC1 (stereo not drawn),-16.2
O=S(=O)(CCNC1CCCSC1)NCC1CCC1 (stereo not drawn),47.26